Measured values from several laboratories, pooled; numbers as filed in NIAID ChemDB.

All rows: tests in culture

Blank or dashed fields: not listed here. Neighbouring rows are from separate reports. Percent inhibition refers to the dose given; in toxicity tests it is the harm to the cells.

structure	read by	dose	endpoint	conditions	organism	strain or isolate	result
CC[C@H]1OC(=O)[C@H](C)[C@@H](OC(=O)Cc2ccccn2)[C@H](C)[C@@H](O[C@@H]2O[C@H](C)C[C@H](N(C)C)[C@H]2O)C(C)(O)C[C@@H](C)/C(=N\OCCCOc2ccccc2)[C@H](C)[C@@H](O)[C@]1(C)O			MIC		Mycobacterium avium complex	20092 (clarithromycin-resistant)	25 µg/mL
CCc1nc2ccc(Cl)cn2c1C(=O)NCc1ccc(N2CCN(c3ncc(OC(F)(F)F)cc3F)[C@@H](C)C2)c(F)c1.Cl	fluorescence	0.035 µM	inhibition		Mycobacterium avium		85%
CC[C@H]1OC(=O)[C@H](C)[C@@H](OC2C[C@@](C)(OC)[C@@H](O)[C@H](C)O2)[C@H](C)[C@@H](O[C@@H]2O[C@H](C)C[C@H](N(C)C)[C@H]2O)C(C)(O)C[C@@H](C)/C(=N\OCCSc2ccccc2)[C@H](C)[C@@H](O)[C@]1(C)O			MIC		Mycobacterium avium complex	20092 (clarithromycin-resistant)	25 µg/mL
CO[C@H]1/C=C/O[C@@]2(C)Oc3c(C)c(O)c4c(O)c(c(/C=N/N5CCN(C6CCCC6)CC5)c(O)c4c3C2=O)NC(=O)/C(C)=C\C=C\[C@H](C)[C@H](O)[C@@H](C)[C@@H](O)[C@@H](C)[C@H](OC(C)=O)[C@@H]1C			MIC		Mycobacterium avium intracellulare	AMT	0.5 µg/mL
CC[C@H]1OC(=O)[C@H](C)[C@@H](OC2C[C@@](C)(OC)[C@@H](O)[C@H](C)O2)[C@H](C)[C@@H](O[C@@H]2O[C@H](C)C[C@H](N(C)C)[C@H]2O)C(C)(O)C[C@@H](C)/C(=N\OCCCCOc2ccccc2)[C@H](C)[C@@H](O)[C@]1(C)O			MIC		Mycobacterium avium complex	20092 (clarithromycin-resistant)	12.5 µg/mL
COc1ccn2nc(C)c(C(=O)NCc3ccc(N4CCN(c5ccc(OC(F)(F)F)cc5)[C@@H](C)C4)c(Cl)c3)c2c1.Cl	fluorescence	0.014 µM	inhibition		Mycobacterium avium		85%
CC[C@H]1OC(=O)[C@H](C)[C@@H](O[C@H]2C[C@@](C)(OC)[C@@H](OC(C)=O)[C@H](C)O2)[C@H](C)[C@@H](O[C@@H]2O[C@H](C)C[C@H](N(C)C)[C@H]2OC(=O)NNCc2cccc(OC)c2)C(C)(O)C[C@@H](C)/C(=N\OCCCC2CCCCC2)[C@H](C)[C@@H](O)[C@]1(C)O			MIC		Mycobacterium avium complex	20092 (clarithromycin-resistant)	0.78 µg/mL
Cc1ccc2oc(=O)n(-c3ccccc3)c(=S)c2c1			MIC	21 d	Mycobacterium kansasii	6509/96	4 µM
CCCCCCCCO/N=C1\[C@H](C)CC(C)(O)[C@H](O[C@@H]2O[C@H](C)C[C@H](N(C)C)[C@H]2O)[C@@H](C)[C@H](OC2C[C@@](C)(OC)[C@@H](O)[C@H](C)O2)[C@@H](C)C(=O)O[C@H](CC)[C@@](C)(O)[C@H](O)[C@H]1C			MIC		Mycobacterium avium complex	20096 (clarithromycin-resistant)	6.25 µg/mL
O=c1oc2ccc(F)cc2c(=S)n1-c1cccc(Cl)c1			MIC	14 d	Mycobacterium kansasii	My 235/80	1 µM
CCc1nc2cc(Cl)ccn2c1C(=O)NCc1ccc(N2CCN(c3ccc(OC(F)(F)F)cc3)[C@@H](C)C2)c(F)c1	fluorescence	0.026 µM	inhibition		Mycobacterium avium		85%
O=c1oc2ccc(Cl)cc2c(=S)n1-c1ccc(C(F)(F)F)cc1			MIC	21 d	Mycobacterium kansasii	6509/96	16 µM
CC(C)N=c1cc2n(-c3ccc(Cl)cc3)c3ccccc3nc-2cc1Nc1ccc(Cl)cc1			MIC		Mycobacterium fortuitum	6842 ATCC	13.3 µg/mL
O=c1oc2ccc(Br)cc2c(=S)n1-c1ccc(F)cc1			MIC	21 d	Mycobacterium kansasii	My 235/80	16 µM
CCc1nc2ccc(Cl)cn2c1C(=O)NCc1ccc(C2CCN(c3ccc(OC(F)(F)F)cc3)[C@@H](C)C2)c(F)c1.Cl	fluorescence	0.0062 µM	inhibition		Mycobacterium avium		85%
COc1ccc2oc(=O)n(-c3ccc(Cl)cc3)c(=S)c2c1			MIC	21 d	Mycobacterium kansasii	My 235/80	16 µM
CC[C@H]1OC(=O)[C@H](C)[C@@H](O[C@H]2C[C@@](C)(OC)[C@@H](OC(C)=O)[C@H](C)O2)[C@H](C)[C@@H](O[C@@H]2O[C@H](C)C[C@H](N(C)C)[C@H]2O)C(C)(O)C[C@@H](C)/C(=N\OCCOc2ccccc2)[C@H](C)[C@@H](O)[C@]1(C)O			MIC		Mycobacterium avium intracellulare	20066 (clarithromycin-susceptible)	1.56 µg/mL
COc1ccc2oc(=O)n(-c3ccc(Cl)c(Cl)c3)c(=S)c2c1			MIC	21 d	Mycobacterium kansasii	6509/96	62.5 µM
Cc1nc2ccc(Cl)cn2c1C(=O)NCc1ccc(N2C[C@H](C)N(c3ccc(OCC(F)(F)F)nc3)C[C@H]2C)c(F)c1.Cl	fluorescence	0.1 µM	inhibition		Mycobacterium avium		85%